The other results are listed elsewhere or left out. Only a part of the results of these assays is listed, not drawn at random. The source made the active and inactive calls. The calls are words filed in the database; no cut-off is given here.

Potency data for 2 molecules are collected here from ChEMBL document CHEMBL1201862, “PubChem BioAssay data set” (2004).

In the assay the test system is Plasmodium falciparum. Briefly: Primary qHTS for delayed death inhibitors of the malarial parasite plastid, 96 hour incubation. [Related pubchem assays (depositor defined):AID488745, AID488752, AID488774, AID504848, AID504850]. Type of assay: functional. (qHTS replaces the single test concentration by a dilution series.)
On to `CCc1nc2c([nH]1)c1no[n+]([O-])c1c1no[n+]([O-])c21`, for which the Potency was active: 4.65 µM.
Take `CCOC(=O)C(CC)C1=NC(C)(C)Cc2ccccc21` (configuration not stated): the Potency result is “inactive”.
